Results of unrelated studies side by side (data: NIAID ChemDB).

Shared fields: toxicity to cultured cells; cells: CEM; measure: CC50

Lines come from different laboratories, so protocols vary.

compound,read by,result
Nc1nc(NC2CC2)c2ncn([C@H]3C=C[C@@H](CO)O3)c2n1,,200 µM
C#C[C@@]1(CO)C=C[C@H](n2cc(C)c(=O)[nH]c2=O)O1,,>100 µM
Cc1cc(S(=O)(=O)Nc2nnc3c(Cl)cc(C(F)(F)F)cn23)c(S)cc1Cl,,120 µM
O=c1[nH]cnc2c1ncn2[C@@H]1O[C@@H](CO)C=C1F,,>100 µM
COC(=O)[C@H](C)NP(=O)(OC[C@@H]1C=C[C@H](n2cc(C)c(=O)[nH]c2=O)O1)Oc1ccccc1,,129 µM
C[C@@H](Cn1cnc2c(N)ncnc21)OCP(=O)(O)O,,>300 µM
COCCCCCCCCCCCC(=O)O,,88 µM
CC(C)NC(=O)c1cnnn1C1OC(CO[Si](C)(C)C(C)(C)C)C2(OS(=O)(=O)C=C2N)C1O[Si](C)(C)C(C)(C)C,,>250 µM
O=C(O)CCNC(=O)c1ccccc1SSc1ccccc1C(=O)NCCC(=O)O,,>120 µM
Cc1cc(SC2=C(O)CC(C)(CCc3ccc(O)cc3)OC2=O)c(C(C)(C)C)cc1OS(=O)(=O)c1cn(C)cn1,,>100 µM
CN[C@@H]1[C@H](O[C@@H]2OC[C@@H](O)[C@H](O)[C@H]2O)[C@@H](O)[C@H](O[C@H]2c3cc(C)c(C(=O)N[C@H](C)C(=O)O)c(O)c3-c3c(cc4c(c3O)C(=O)c3cc(OC)cc(O)c3C4=O)[C@@H]2O)O[C@@H]1C,,>50 µg/mL
Nc1ncnc2c1ncn2C1OC(CO)C=C1F,,>100 µM
Cc1cc(SC2=C(O)C[C@](CCc3ccc(N)cc3)(C(C)C)OC2=O)c(C(C)(C)C)cc1CO,,210 µM
C1CNCCNCCCN(CCCN2CCCNCCNCCCNCC2)CCNC1,,>1243 µM
CCCCCCCCCCOCCC(=O)O,,80 µM
CO[C@@H]1N([C@H]2C=C[C@@H](CO)O2)C(=O)NC(=O)[C@@]1(C)I,,66 µM
C[C@H](NP(=O)(N[C@@H](C)C(=O)OCc1ccccc1)OC[C@@H]1O[C@H](n2ccc(N)nc2=O)CS1)C(=O)OCc1ccccc1,,>250 µM
Cc1cc(S(=O)(=O)Nc2n[nH]c(Nc3ccc(Cl)cc3)n2)c(S)cc1Cl,,>200 µM
Nc1nc2c(ncn2COCCO)c(=O)[nH]1,,1020 µM
Cc1cc(S(=O)(=O)Nc2nnc3c4ccccc4ccn23)c(S)cc1Cl,,200 µM
Cc1cc(SC2=C(O)CC(CCc3ccc(N)cc3)(C(C)C)OC2=O)c(C(C)(C)C)cc1CO,,>100 µM
Cc1ccc2nnc(NS(=O)(=O)c3cc(C)c(Cl)cc3S)n2n1,,>200 µM
COC1(C)C(=O)NC(=O)N([C@H]2C=C[C@@H](CO)O2)[C@@H]1O,,>170 µM
CCOCCCCCCCCCCC(=O)O,,64 µM
C[C@@]1(Br)C(=O)NC(=O)N([C@H]2C=C[C@@H](CO)O2)[C@H]1O,,>200 µM
Nc1ccn([C@H]2CC[C@@H](CO)O2)c(=O)n1,,>5.5 µM
CCNC(=O)c1cnnn1C1OC(CO[Si](C)(C)C(C)(C)C)C2(OS(=O)(=O)C=C2N)C1O[Si](C)(C)C(C)(C)C,,≥250 µM
Nc1nc(NC2CC2)c2ncn([C@H]3C=C[C@@H](COP4(=O)OCc5ccccc5O4)C3)c2n1,,110 µM
CCO[C@H]1N([C@H]2C=C[C@@H](CO)O2)C(=O)NC(=O)[C@]1(C)Br,,>14 µM
Cc1cc(S(=O)(=O)/N=C(\NN)Nc2ccc(Cl)cc2)c(S)cc1Cl,,10 µM
C[C@]1(Br)C(=O)NC(=O)N([C@H]2C=C[C@@H](CO)O2)[C@@H]1N=[N+]=[N-],,44.7 µM
CCCCCOCCCCCCCC(=O)O,,68 µM
Nc1ccn([C@@H]2C=C(F)[C@H](CO)O2)c(=O)n1,,>100 µM
Nc1nc(NC2CC2)c2ncn([C@H]3C=C[C@@H](CO)C3)c2n1,,542 µM
O=C(Nc1ccc(Cl)cc1)c1ccccc1SSc1ccccc1C(=O)Nc1ccc(Cl)cc1,,8 µM
Nc1nc(Br)nc2c1ncn2[C@H]1CC[C@@H](CO)O1,,8 µM
O=C(Nc1ccccc1C(=O)N[C@@H](Cc1ccccc1)[C@H](O)[C@H](O)[C@H](Cc1ccccc1)NC(=O)c1ccccc1NC(=O)OCc1ccccn1)OCc1ccccn1,,>10 µM
CC(C)CC(NC(=O)c1ccccc1SSc1ccccc1C(=O)NC(CC(C)C)C(=O)NC(C)C(=O)O)C(=O)NC(C)C(=O)O,,157 µM
Nc1nc(N)c2ncn([C@H]3CO[C@@H](CO)O3)c2n1,,>500 µM
C[C@@]1(Br)C(=O)NC(=O)N([C@H]2C=C[C@@H](CO)O2)[C@H]1N=[N+]=[N-],,44.7 µM
CCCCC(Sc1cc(Cl)c(C)cc1S(=O)(=O)Nc1n[nH]c(N)n1)C(=O)OC,,112 µM
O=C(O)c1ccccc1SSc1ccccc1C(=O)O,,>100 µM
O=c1[nH]c(=O)n([C@H]2C[C@H](O)[C@@H](CO)O2)cc1C12B3B4B5B6B(B3B1B42)B1B5C61,,>100 µM
CC(C)(C)[Si](C)(C)OCC1OC(n2nncc2C(=O)NC2CCC2)C(O[Si](C)(C)C(C)(C)C)C12OS(=O)(=O)C=C2N,,>250 µM
CC(=O)Oc1ccc(S)c(S(=O)(=O)Nc2n[nH]c(N)n2)c1,,>200 µM
Cc1cccc2c1OP(=O)(OCCOCn1cnc3c(=O)[nH]c(N)nc31)OC2,,108 µM
Cc1cc(SC2=C(O)CC(CCc3ccc(O)cc3)(C3CC3)OC2=O)c(C(C)(C)C)cc1CO,,>100 µM
Nc1cc(C(=O)O)ccc1SSc1ccc(C(=O)O)cc1N,,>200 µM
CCO[C@@H]1N([C@H]2C=C[C@@H](CO)O2)C(=O)NC(=O)[C@@]1(C)Br,,>14 µM
Cc1cccc(NC(=O)c2ccccc2SSc2ccccc2C(=O)Nc2cccc(C)c2)c1,,40 µM
C=CCOC(=O)CCCCCCCCC,,263 µM
C[C@]12CC[C@H](OS(=O)(=O)O)CC1=CC[C@@H]1[C@@H]2CC[C@]2(C)C(=O)CC[C@@H]12,trypan blue,>1000 µM
Nc1nc2c(ncn2[C@H]2C=C[C@@H](CO)C2)c(=O)[nH]1,,60.5 µg/mL
CC[C@H](C)[C@H](NC(=O)c1ccccc1SSc1ccccc1C(=O)N[C@H](C(=O)O)[C@@H](C)CC)C(=O)O,,140 µM
CCCOCCCCCCCCCC(=O)O,,116 µM
COc1ccc2c(c1)COP(=O)(OC[C@@H]1C=C[C@H](n3cnc4c(NC5CC5)nc(N)nc43)C1)O2,,141 µM
C=CCO,,200 µM

Again, the opening 7 rows:

compound,read by,result
Nc1nc(NC2CC2)c2ncn([C@H]3C=C[C@@H](CO)O3)c2n1,,200 µM
C#C[C@@]1(CO)C=C[C@H](n2cc(C)c(=O)[nH]c2=O)O1,,>100 µM
Cc1cc(S(=O)(=O)Nc2nnc3c(Cl)cc(C(F)(F)F)cn23)c(S)cc1Cl,,120 µM
O=c1[nH]cnc2c1ncn2[C@@H]1O[C@@H](CO)C=C1F,,>100 µM
COC(=O)[C@H](C)NP(=O)(OC[C@@H]1C=C[C@H](n2cc(C)c(=O)[nH]c2=O)O1)Oc1ccccc1,,129 µM
C[C@@H](Cn1cnc2c(N)ncnc21)OCP(=O)(O)O,,>300 µM
COCCCCCCCCCCCC(=O)O,,88 µM

An empty or dashed field is not shown. CCn: concentration that lowers growth or viability of the cells by n%.